Screening data, single-dose tests

Measurements from “University of Dundee, Small-Polar-MMV Screening Library” (2021), ChEMBL document CHEMBL3988442.

A: 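Phenotypic screen: M. tuberculosis growth, glucose 7H9 medium, 3 days; the read-out is not stated. Tested at 50 µM. Direction is inferred from retests: higher values go with more growth inhibition. Size under these conditions: about 69,000 compounds, about 760 of them at 50% or above in at least one test.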
B: 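Phenotypic screen: M. tuberculosis growth, cholesterol and DPPC medium, 4 days; the read-out is not stated. Concentration: 50 µM. The record gives no direction; compounds that gave an IC50 in retests scored well above the rest, so higher reads as more growth inhibition. About 69,000 compounds were tested under these conditions; 0.54% (about 370) showed 50% or more at least once.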

Results are given as percent effect. The record does not define 0% and 100%; most values in the screen are far below 50% and negative numbers occur (in some assays of this library far below -100). The entries come from a sample that favours strong results. Two or more numbers in one place are separate tests of the same structure; such repeats can differ widely.

O=C(O)C(F)(F)F.O=C(O)C(F)(F)F.[H][C@]12C[C@@H](CN3CCCC3)N(C)[C@@]1([H])CCN(C(=O)c1cccn1C)C2 read B: 117.3%. CN(Cc1ccco1)C(=O)C1CCCc2ccccc21 (stereo not given) read A: 10.33%; B: -1.552%. O=C1CCc2cc(-c3csc(CCN4CCCC4=O)n3)ccc2N1 gave A: -15.05%; B: -26.1%. For Cn1cc(CN(Cc2ccccn2)Cc2ccccc2Cl)cn1 the result was A: 15.85%. Result for CN(C)CCNc1ccc(-c2nc(-c3ccccc3F)no2)cn1 was A: 56.49%. For COc1ccc2[nH]c(C(=O)NCC3(N)CCCC3)cc2c1 the result was A: 8.47%; B: -3.292%. With NCc1ccnc(Oc2ccc(F)cc2)c1 the screen gave A: 9.119%. For Cc1cnn(-c2cccc(N3CCCC3)n2)c1 the result was B: -9.899%.

Cc1cc2nc(C(C)C)cc(NCCc3cccn3C)n2n1 read A: 53.2%. CCCNC(=O)Cn1cc(-c2ccccc2)cn1 read A: -5.026%; B: -12.1%. With CC(NC(=O)NCc1cc(Br)cs1)c1ccccn1 (stereo not given) the screen gave A: -1.176%. Cc1nc2c(c(NCc3ccc(-c4ccccn4)s3)n1)CCNCC2 read A: 5.268%. Result for CC(C)(O)CCc1cccc(C(=O)NCc2cnn3cccnc23)c1 was A: -4.624% & -20.33%; B: -5.769%. For O=C(Cc1ccc2c(c1)CCC2)NC1CCN(Cc2ccccc2)CC1 the result was A: 10.53% & 0.3403%; B: -13.43%. Cc1ccc(CNC(=O)CN2CCN(CCO)CC2)s1 read A: 29.08%. Cn1ccnc1CN1CCN(CC(O)c2ccc(F)cc2)CC1 (stereo not given) gave A: -3.582%.

With CCCn1ncc2c(C(=O)Nc3n[nH]c(SC)n3)cc(C3CC3)nc21 the screen gave A: 15.33%. COc1ccc(Oc2cccnc2)cc1CN1CCCC1 gave A: -38.58% & 3.228%. Result for O=C(Cc1cccc(F)c1)NCCNCc1cccnc1 was A: -1.96%. With Clc1ccccc1C1(c2ccnc(C3CC3)n2)CCNCC1 the screen gave A: -9.656%. CN1Cc2ccccc2NC(=O)C12CCNC2 (stereo not given) read A: 21.54%. With CN(C(=O)Cc1coc(-c2ccccc2)n1)C1(C#N)CCC1 the screen gave A: -1.799%. Result for COc1ccc(C2CC(=O)Nc3nc(N4CCOCC4)sc32)c(OC)c1 (stereo not given) was A: 46.37%. For c1cncc(CN2CCCC(c3nnc(-c4cnccn4)o3)C2)c1 (stereo not given) the result was B: 86.35%.

With O=C(c1cc(C2CC2)[nH]n1)N1CCN(Cc2ccc3c(c2)OCO3)CC1 the screen gave A: 66.25% & 88.71%; B: 68.4%. NCCn1nc(C2CCN(Cc3ccccc3Cl)C2)c2nccnc21 (stereo not given) gave B: 53.37%. COC(=O)CSCc1noc(-c2ccc(Cl)cc2)n1 gave A: 60.14% & 56.09%. For COCCCNC(=O)Nc1cccc(Cl)c1-n1cccn1 the result was A: -32.08%. With O=C(NCCNc1ccc(C(F)(F)F)cn1)c1ccc(Br)cc1F the screen gave B: 36.14%. CCC1=NC(SCC(=O)c2ccccc2)c2cc(CC)sc2N1 (stereo not given) read A: 58.68%. With CCc1ncc(CN2CCOC(Cc3cccc(F)c3)C2)cn1 (stereo not given) the screen gave A: 42.75%; B: 44.17%. CCNC(=O)CNS(=O)(=O)c1cc(Br)ccc1F gave A: -21.04%; B: -5.138%.

CN(CC1(C)COC1)C(=O)c1cc(-c2ccn(C)n2)nc2ccccc12 gave B: 6.245% & 17.8%. For COc1cc(C#N)ccc1OC12CCCN(CC1)C2 (stereo not given) the result was A: 29.69%; B: -1.666%. Result for CCc1nn(C)c(Cl)c1CN1CCN(c2ccc(Cl)nn2)CC1 was A: 6.785% & -17.61%. Cc1noc(C)c1C(=O)NCCc1cccs1 gave A: 9.474% & -6.475%. COCCC1(CNC(=O)Nc2ccc(-n3nccn3)cc2)CCC1 gave A: 23.16%. CN(C)c1ccc(NC(=O)c2cccc(N(C)C)c2)nc1 gave A: -17.3% & -113.9%; B: -29%. COc1ccc(C2SCC(=O)N2c2ncc(C)s2)cc1 (stereo not given) gave A: 35.81% & 40.39%. Result for NC(=O)C1CCN(C(=O)CCCc2ccc(Cl)c(Cl)c2)CC1 was A: 10.27%; B: -11.44%.

For COc1ccc(CCNC(=O)C(C)Nc2ccc(C)c(C)c2)cc1 (stereo not given) the result was B: -6.44%. For O=C(c1cc(Br)ccc1Cl)N1CCN(Cc2ccco2)CC1 the result was A: 6.413%; B: -2.507%. CCCc1nc2c(c(C)c(C)n2Cc2ccccn2)c(N)c1CC read A: 16.81% & 23.02%.

Repeated from the top, 3 entries:

{"smiles": "O=C(O)C(F)(F)F.O=C(O)C(F)(F)F.[H][C@]12C[C@@H](CN3CCCC3)N(C)[C@@]1([H])CCN(C(=O)c1cccn1C)C2", "B": 117.3}
{"smiles": "CN(Cc1ccco1)C(=O)C1CCCc2ccccc21", "stereo": "stereo not given", "A": 10.33, "B": -1.552}
{"smiles": "O=C1CCc2cc(-c3csc(CCN4CCCC4=O)n3)ccc2N1", "A": -15.05, "B": -26.1}